Our source for the CPE inhibition values is PubChem BioAssay AID2391 (Southern Research Specialized Biocontainment Screening …, 2010).

The structures appear in SMILES notation. The list shows a part of the results. Measured potencies and affinities stand elsewhere. The source made the active and inactive calls. No rule for the calls is given here.

This experiment can be described thus: inhibition of RSV-induced cytopathic effect – HEp-2 cells, primary 10 µM value included (AID 2391). Conditions: at 10 µM, active compounds read high. In general terms: Damage to the host cells serves as the signal in cytopathic effect assays.
For `O=C(OC1CN2CCC1CC2)c1ccccc1` (stereo unspecified), the CPE inhibition was inactive: -2.31%. Then `CCC(=O)N1C2C3N(C(=O)CC)C1C1N(C(=O)CC)C(C(N1C(=O)CC)N3C(=O)CC)N2C(=O)CC`, with inactive: 2.03%; and `COC(=O)c1cc2c(s1)N=C(c1ccccc1)N(C)P2(=O)N1CCOCC1` (stereo unspecified), with inactive: 0.05%; and `CC(=O)NC(SC(=S)N(CC(C)C)CC(C)C)C(Cl)(Cl)Cl` (stereo unspecified), with inactive: 2%.

In the case of `Cc1ccc(OP(=O)(Nc2ccccn2)Oc2ccc(C)cc2)cc1`, the CPE inhibition was inactive: 7.29%. As for `Cc1ccccc1OP(=O)(Nc1ccccn1)Oc1ccccc1C`, the figure is inactive: 1.75%; as for `CN(C)C(=O)Oc1noc2ccccc12`, inactive: 0.87%; as for `c1ccc(-c2nn[nH]n2)c(-c2nn[nH]n2)c1`, inactive: 0.05%. On to `Cc1ccc(NP(=O)(Oc2cccc(C)c2)Oc2cccc(C)c2)nc1`, for which the CPE inhibition was inactive: 0.05%. Then `CCOC(=O)NC(Sc1ccccc1)C(Cl)(Cl)Cl` (stereo unspecified), with inactive: 3.94%; and `CCNC(=S)/N=C(\N)N[N+](=O)[O-]`, with inactive: 0.89%; and `O=C(NC1CCS(=O)(=O)C1)NP(=S)(Oc1ccccc1)Oc1ccccc1` (stereo unspecified), with inactive: -0.27%. Then `Cc1ccccc1CN(C)C(=O)COC(=O)C(O)(c1ccccc1)c1ccccc1`, with inactive: 1.55%; and `C[C@H]1OP(=O)(Oc2ccccc2)C[C@@H]2O[C@@H]21` (stereo partly specified), with inactive: 2.8%; and `C[C@@H]1C=CCP(=O)(Oc2ccccc2)O1` (stereo partly specified), with inactive: 0.39%. With `CC(=O)c1ccc(N2CC2c2ccncc2)cc1` (stereo unspecified), the CPE inhibition was inactive: 0.38%. As for `CC(=O)Nc1ccc([As](=O)(O)O)c(O)c1`, the figure is inactive: -0.94%; as for `CC(=O)Nc1ccc(Oc2c([N+](=O)[O-])cc([N+](=O)[O-])cc2[N+](=O)[O-])cc1`, inactive: 2.12%; as for `O=P1(Nc2nc3ccc(Cl)cc3s2)COc2ccccc2O1` (stereo unspecified), inactive: 2.84%. As for `CCOc1ccc(C2=NCC(CBr)S2)cc1` (stereo unspecified), the figure is inactive: 0.56%.

In the case of `CC(C)(C)C(=O)NC(Sc1ccccc1)C(Cl)(Cl)Cl` (stereo unspecified), the CPE inhibition was inactive: -1.65%.

As for `CC(C)C(=O)NC(Sc1ccccc1)C(Cl)(Cl)Cl` (stereo unspecified), the CPE inhibition was inactive: 1.75%. Turning to `O=P(Nc1nccs1)(c1ccccc1)c1ccccc1`, the CPE inhibition was inactive: 0%. Then `c1nnnn1CCn1cnnn1`, with inactive: 0.47%; and `O=[As](O)(c1ccccc1)c1ccc(O)cc1`, with inactive: -0.18%. Then `O=[N+]([O-])c1ccc(O)c(/C=N/Nc2ccc([N+](=O)[O-])cc2[N+](=O)[O-])c1`, with inactive: -2.21%; and `CC(=O)NC(SC(=S)N(C)C)C(Cl)(Cl)Cl` (stereo unspecified), with inactive: 1.1%; and `O=[N+]([O-])c1ncn(CCn2cnc([N+](=O)[O-])n2)n1`, with inactive: -0.04%. As for `O=C(OC1CN2CCC1CC2)c1cccc(Cl)c1` (stereo unspecified), the figure is inactive: -0.6%. Take `C(Cc1nn[nH]n1)Cc1nn[nH]n1`: the CPE inhibition is inactive: 1.12%. As for `Nc1ccc([As](=O)(O)c2ccc([N+](=O)[O-])cc2)cc1`, the figure is inactive: -0.32%. As for `O=P(Nc1ccccn1)(c1ccc(Br)cc1)c1ccc(Br)cc1`, the figure is inactive: 6.65%; as for `CN(C)C1(CNC(=O)c2ccc(Cl)c(S(N)(=O)=O)c2)CCCCC1`, inactive: -0.28%; as for `O=P(Nc1nc2ccccc2s1)(c1ccccc1)c1ccccc1`, inactive: 1.43%. As for `C[C@H]1OP(=O)(Oc2ccccc2)[C@H](O)[C@H](O)[C@H]1N=[N+]=[N-]` (stereo partly specified), the figure is inactive: 0.56%. With `O=[N+]([O-])c1ncn(CCn2ncnc2[N+](=O)[O-])n1`, the CPE inhibition is inactive: 1.53%. As for `CC(C)(C)C(=O)NC(Sc1ccncn1)C(Cl)(Cl)Cl` (stereo unspecified), the figure is inactive: -0.47%; as for `O=C(O)CNc1ccc([As](=O)(O)O)cc1`, inactive: 1.53%; as for `O=[N+]([O-])c1cccc(NC2=NCC(CBr)S2)c1` (stereo unspecified), inactive: 1.95%. As for `O=C(Nc1cc([As](=O)(O)O)ccc1O)c1ccccc1`, the figure is inactive: -0.02%; as for `CCN(/C(=N/P(=O)(N1CCOCC1)N1CCOCC1)N1CCOCC1)c1ccc(OC)cc1`, inactive: 1.87%. Take `Nc1ccc([As](=O)(O)c2ccc(N)cc2)cc1`: the CPE inhibition is inactive: 0.8%. On to `C[N+]1=C2C=CC=CC=C2SC12C([N+](=O)[O-])=CC([N+](=O)[O-])=C[C-]2[N+](=O)[O-]` (stereo unspecified), for which the CPE inhibition is inactive: 2.06%. On to `CC1CCN(C(=O)Oc2c(Cl)cc(Cl)c3cccnc23)CC1`, for which the CPE inhibition was inactive: 3.63%. As for `CC(C)=N/N=C(\N)N[N+](=O)[O-]`, the figure is inactive: -1.06%; as for `CN(C)C(=O)OCCc1n(C)cc[n+]1C`, inactive: 1.91%. As for `COc1ccc(C2=NCC(CBr)S2)cc1` (stereo unspecified), the figure is inactive: 0.22%; as for `Cc1ccc(NP(=O)(Oc2ccccc2)Oc2ccccc2)nc1`, inactive: -0.02%. Then `CCc1nc2c(n1)c1c(non1O)c1c2no[n+]1[O-]`, with inactive: 5.49%; and `O=[N+]([O-])c1cc([N+](=O)[O-])c(CCNc2ccccc2)c([N+](=O)[O-])c1`, with inactive: -0.82%; and `O=[N+]([O-])c1cccc2n[nH]nc12`, with inactive: 1.05%. For the compound `CC(=O)N1C2C3N(C(C)=O)C1C1N(C(C)=O)C(C(N1C(C)=O)N3C(C)=O)N2C(C)=O`, the CPE inhibition was inactive: 0.46%.

Take `Oc1ccccc1CNc1ccccn1`: the CPE inhibition was inactive: 0.42%.

For the compound `O=C(NC(Sc1ccncn1)C(Cl)(Cl)Cl)c1ccccc1` (stereo unspecified), the CPE inhibition is inactive: 0.98%.

With `Cc1c2non([O-])c-2c(C)[n+](=O)[n+]1[O-]`, the CPE inhibition is inactive: -0.78%. As for `CC(C)CC(=O)NC(Sc1ccc(Cl)cc1)C(Cl)(Cl)Cl` (stereo unspecified), the figure is inactive: -0.12%; as for `CN(C(=O)Cc1ccc(Cl)c(Cl)c1)[C@H]1CCCC[C@H]1N1CCCC1`, inactive: -1.44%; as for `Cc1ccc(N/C(=N/P(=O)(N2CCOCC2)N2CCOCC2)N2CCOCC2)cc1`, inactive: 1.28%. Consider `NC(=O)c1cc([N+](=O)[O-])cc([N+](=O)[O-])c1N`, for which the CPE inhibition is inactive: 2.38%. Then `CN1CCCC(OC(=O)C(c2ccccc2)c2ccccc2)C1` (stereo unspecified), with inactive: 1.61%. Then `Clc1ccc(Cl)c(NC2=NCC(CBr)S2)c1` (stereo unspecified), with inactive: -0.77%. As to `COc1ccccc1OP(=O)(Nc1ccc(C)cn1)Oc1ccccc1OC`, the CPE inhibition is inactive: 1.64%. As to `Cc1ccc(OP(=O)(Nc2nccs2)Oc2ccc(C)cc2)cc1`, the CPE inhibition was inactive: 0.5%. As for `O=[N+]([O-])c1cc([N+](=O)[O-])c(CCN2CCOCC2)c([N+](=O)[O-])c1`, the CPE inhibition is inactive: 2.46%.

For the compound `Nc1cccc2ccc([As](=O)(O)O)cc12`, the CPE inhibition is inactive: 6.23%. For `CCN(N=Nc1nonc1N)c1nonc1N`, the CPE inhibition is inactive: 1.99%.

Regarding `O=P(Nc1nc2ccc(Cl)cc2s1)(c1ccccc1)c1ccccc1`, the CPE inhibition was inactive: 3.65%. Then `CC(=O)Nc1ccc([As](=O)(O)O)cc1`, with inactive: 0.38%; and `O=C(O)c1ccccc1[As](=O)(O)O`, with inactive: -2.02%; and `Cc1cc(SC(NC(=O)c2ccc(F)cc2)C(Cl)(Cl)Cl)ncn1` (stereo unspecified), with inactive: 0.14%.

As for `CCOP(=O)(Nc1ccccc1)OCC`, the CPE inhibition is inactive: 1.1%.

As to `Cc1ccc(NP(=O)(Oc2ccccc2F)Oc2ccccc2F)nc1`, the CPE inhibition is inactive: 0.34%. As for `CN(C(=O)Cc1ccc(Cl)c(Cl)c1)[C@H]1CCCC[C@@H]1N1CCCC1`, the figure is inactive: -1.98%; as for `ClCCSc1nnc(-c2cccnc2)o1`, inactive: 0.65%; as for `CC(C)NC(=O)NP(=O)(Oc1ccccc1)Oc1ccccc1`, inactive: -1.81%.

As to `CCN(CC)C(=S)SC(NC=O)C(Cl)(Cl)Cl` (stereo unspecified), the CPE inhibition is inactive: 1.74%.

On to `O=[N+]([O-])c1cc([N+](=O)[O-])c(-c2ccn[nH]2)s1`, for which the CPE inhibition was inactive: 2.41%.

Take `C[As](=O)(O)c1cccc(C(=O)O)c1`: the CPE inhibition was inactive: 2.87%. With `O=[As](O)(c1ccc(O)cc1)c1ccccc1O`, the CPE inhibition was inactive: 2.66%. As for `COc1cc(C(=O)NCC2(N3CCOCC3)CCCCC2)ccc1OCC(C)C`, the figure is inactive: 0.08%; as for `Cc1ccc(OP(=O)(Nc2ccc([N+](=O)[O-])cn2)Oc2ccc(C)cc2)cc1`, inactive: 0.73%; as for `COc1ccc(N/C(=N/P(=O)(N2CCOCC2)N2CCOCC2)N2CCOCC2)cc1`, inactive: 1.07%. As for `O=C(OC1CN2CCC1CC2)C12CC3CC(CC(C3)C1)C2` (stereo unspecified), the figure is inactive: -0.57%; as for `Cc1cc(=O)[nH]c(N[N+](=O)[O-])n1`, inactive: 0.28%; as for `COc1ccc2nc(NP(=O)(c3ccccc3)c3ccccc3)sc2c1`, inactive: -0.51%.

For `COc1cc(I)ccc1[As](=O)(O)O`, the CPE inhibition was inactive: 0.1%. Then `O=C(OC1CN2CCC1CC2)c1cccc([N+](=O)[O-])c1` (stereo unspecified), with inactive: 0.66%; and `CCOC(=O)c1ccc(NC(=O)C(C)(CCl)SC)cc1` (stereo unspecified), with inactive: 0.79%; and `CCC(C)N(CC(C)C)C(=S)SC(NC(C)=O)C(Cl)(Cl)Cl` (stereo unspecified), with inactive: -2.93%.

As for `COP1(=S)c2c(C)nn(CCC#N)c2N=C(c2ccc(F)cc2)N1C` (stereo unspecified), the CPE inhibition is inactive: -0.88%. Then `O=C(COc1ccccc1)OC1CN2CCC1CC2` (stereo unspecified), with inactive: 1.49%; and `O=C(Nc1ccncc1[N+](=O)[O-])c1ccc([N+](=O)[O-])cc1[N+](=O)[O-]`, with inactive: 3.5%; and `CCOC(=O)Nc1cccc([As](=O)(O)O)c1`, with inactive: 1.72%. As for `O=P(Nc1ccccn1)(c1cccc2ccccc12)c1cccc2ccccc12`, the figure is inactive: 6.64%. `Cc1cc(SC(NC=O)C(Cl)(Cl)Cl)ncn1` (stereo unspecified): the CPE inhibition is inactive: 1.8%. As for `O=[N+]([O-])c1ccc(Nc2ccc(Oc3ccc([N+](=O)[O-])cc3[N+](=O)[O-])cc2)c([N+](=O)[O-])c1`, the figure is inactive: 0.21%; as for `CCOC(=O)Nc1ccc([As](=O)(O)O)c(O)c1`, inactive: 0.14%. As for `Cc1cc(SC(NC(=O)c2ccccc2)C(Cl)(Cl)Cl)nc(C(C)C)n1` (stereo unspecified), the figure is inactive: 1.37%; as for `O=P1(Nc2ncccn2)COc2ccccc2OC1`, inactive: 1.29%.

Consider `Nc1cccc([As](=O)(O)c2ccccc2)c1`, for which the CPE inhibition was inactive: 1.1%. With `Cc1ccc(OCC(=O)OC2CN3CCC2CC3)cc1` (stereo unspecified), the CPE inhibition was inactive: 0.4%.
